Anti-infective test results gathered from many reports (values: NIAID ChemDB through PubChem).

Common to all: growth or infection tests

Percent inhibition refers to the dose given; in toxicity tests it is the harm to the cells. MIC50, MIC90 and the like: level of inhibition, or share of isolates inhibited. Conditions beyond the fields shown may differ between rows. Zones are inhibition diameters on agar. ECn is the concentration giving n% inhibition of infection, replication or growth. Fold resistance: result on the changed form divided by that on wild type. An empty or dashed field is not shown.

Nc1ccn(C[C@@H](CO)OCP(=O)(O)O)c(=O)n1 ; read-out: EC90 ; strain or isolate: TAK (TYPE 41) ; species: Adenovirus ; read by: virus yield ; result: 0.2 µg/mL
Nc1nccc2c1ncn2[C@@H]1C[C@H](CO)[C@@H](O)[C@H]1O ; read-out: EC50 ; cell line: VERO ; species: Vesicular stomatitis virus ; read by: cytopathic effect ; result: 7 µg/mL
C#CC[C@@H](C(=O)N[C@H](/C=C/C(=O)OCC)C[C@@H]1CCNC1=O)n1cccc(NC(=O)c2cc(C)on2)c1=O ; tested at: 0.098 µM ; read-out: inhibition ; cell line: H1-HELA ; strain or isolate: Serotype 16 ; species: Rhinovirus ; read by: cytopathic effect / XTT ; result: 90%
CO[C@H]1/C=C/O[C@@]2(C)Oc3c(C)c(O)c4c(O)c(c5c(c4c3C2=O)NC2(CCN(CC(C)C)CC2)N=5)=NC(=O)/C(C)=C\C=C\[C@H](C)[C@H](O)[C@@H](C)[C@@H](O)[C@@H](C)[C@H](OC(C)=O)[C@@H]1C ; read-out: MIC ; strain or isolate: Newman ; species: Staphylococcus aureus ; result: 0.0078 µg/mL
O=c1cnn([C@@H]2O[C@H](CO)[C@@H](O)[C@H]2O)c(=O)[nH]1 ; read-out: EC50 ; cell line: VERO ; strain or isolate: Type 1 (Hawaii) ; species: Dengue virus ; read by: virus yield ; result: <3.3 µg/mL
CCOC(=O)Nc1cc2c(c(N)n1)N=C1c3ccccc3CCC1O2.Cl.Cl ; tested at: 0.001 µg/mL ; read-out: inhibition ; cell line: RK-13 ; species: Encephalitozoon intestinalis ; result: 12.6%
CN[C@@H]1[C@H](O[C@H]2[C@H](O[C@H]3[C@H](O)[C@@H](O)[C@H](N=C(N)N)[C@@H](O)[C@@H]3N=C(N)N)O[C@@H](C)[C@]2(O)C=O)O[C@@H](CO)[C@H](O)[C@H]1O ; tested at: 250 µg/disc ; read-out: zone ; strain or isolate: ESBL-3967 ; species: Klebsiella pneumoniae ; read by: agar diffusion ; result: 14 mm
CC(=O)N[C@H]1[C@@H](O[C@@H]2O[C@H](C[C@@H](O)[C@H]3O[C@@H](n4ccc(=O)[nH]c4=O)[C@H](O)[C@@H]3O)[C@H](O)[C@H](O)[C@H]2NC(=O)/C=C/CC(C)C)O[C@H](CO)[C@@H](O)[C@@H]1O ; tested at: 0.1 µg/mL ; read-out: inhibition ; cell line: RK-13 ; species: Encephalitozoon intestinalis ; result: 56.9%
COc1cc(C[C@H](C)[C@H](C)Cc2ccc(O)c(O)c2)ccc1O ; read-out: MIC100 ; strain or isolate: CCC 123-2000 ; species: Candida kefyr ; read by: broth dilution ; result: 31.25 µg/mL
Nc1ncnc2c1ncn2C[C@@H](CO)OCP(=O)(O)O ; read-out: EC90 ; strain or isolate: Chicago (type 1) ; species: Adenovirus ; read by: virus yield ; result: 1 µg/mL
CCOC(=O)Nc1cc2c(c(N)n1)N=C(c1cccc(OC)c1)CO2 ; tested at: 0.01 µg/mL ; read-out: inhibition ; cell line: RK-13 ; species: Encephalitozoon intestinalis ; result: 39.5%
CCO/N=C/c1ccc(OCCC2CCN(c3ccc(C)nn3)CC2)cc1 ; read-out: EC50 ; cell line: KB ; strain or isolate: SF-1662 (ICAM-1 receptor group 92) ; species: Rhinovirus ; read by: neutral red ; result: 0.001 µM
CC(C)(CO)C(=O)SCCOP(=O)(NCc1ccccc1)OC[C@H]1O[C@@H](n2cnc3c(=O)[nH]c(N)nc32)[C@](C)(O)[C@@H]1O ; read-out: fold resistance ; cell line: Replicon cells ; mutations: P32L ; strain or isolate: GT1b ; species: Hepatitis C virus ; read by: replicon ; result: 0.66
CCOc1cc(Cc2cnc(N)nc2N)cc(OCC)c1-n1cccc1 ; read-out: MBC ; strain or isolate: Isolate 94-539 ; species: Mycobacterium ulcerans ; result: 1 µg/mL
O=C(NC(=O)c1c(F)cccc1F)Nc1cc(Cl)c(OC(F)(F)C(F)C(F)(F)F)cc1Cl ; tested at: 10 µg/mL ; read-out: inhibition ; cell line: RK-13 ; species: Vittaforma corneae ; result: 62.5%
Nc1ccc(S(=O)(=O)c2ccc(N)cc2)cc1 ; read-out: MIC ; strain or isolate: Isolate 94-886 ; species: Mycobacterium ulcerans ; result: 4 µg/mL
COc1ccc2cc3[n+](cc2c1OC)CCc1cc2c(cc1-3)OCO2 ; tested at: 1 µg/mL ; read-out: inhibition ; cell line: RK-13 ; species: Vittaforma corneae ; result: 55.2%
CO[C@H]1/C=C/O[C@@]2(C)Oc3c(C)c(O)c4c(O)c(c(/C=N/N5CCN(C)CC5)c(O)c4c3C2=O)NC(=O)/C(C)=C\C=C\[C@H](C)[C@H](O)[C@@H](C)[C@@H](O)[C@@H](C)[C@H](OC(C)=O)[C@@H]1C ; read-out: MIC ; strain or isolate: Newman ; species: Staphylococcus aureus ; result: 0.002 µg/mL
Nc1ncnc2c1ncn2C[C@H](CO)OCP(=O)(O)O ; read-out: EC90 ; strain or isolate: 13306 (TYPE 8) ; species: Adenovirus ; read by: virus yield ; result: 0.2 µg/mL
CCOC(=O)Nc1cc2c(c(N)n1)N=C(c1cccc(OC)c1)CS2 ; tested at: 1 µg/mL ; read-out: inhibition ; cell line: RK-13 ; species: Encephalitozoon intestinalis ; result: 23.9%

Again, the opening 3 rows:

structure,tested at,read-out,cell line,mutations,strain or isolate,species,read by,result
Nc1ccn(C[C@@H](CO)OCP(=O)(O)O)c(=O)n1,-,EC90,-,-,TAK (TYPE 41),Adenovirus,virus yield,0.2 µg/mL
Nc1nccc2c1ncn2[C@@H]1C[C@H](CO)[C@@H](O)[C@H]1O,-,EC50,VERO,-,-,Vesicular stomatitis virus,cytopathic effect,7 µg/mL
C#CC[C@@H](C(=O)N[C@H](/C=C/C(=O)OCC)C[C@@H]1CCNC1=O)n1cccc(NC(=O)c2cc(C)on2)c1=O,0.098 µM,inhibition,H1-HELA,-,Serotype 16,Rhinovirus,cytopathic effect / XTT,90%